A mixed list of measured activities; the numbers were collected in NIAID ChemDB.

Common to all: toxicity to cultured cells; cells: MRC-5; read-out: CC50

CCn: concentration that lowers growth or viability of the cells by n%. Conditions beyond the fields shown may differ between rows.

{"smiles": "Clc1ccc(-c2cc3ccccn3c2)cc1Cl", "method": "MTT", "result": "391 µM"}
{"smiles": "CCOP(=O)(CCC(COC)OCn1cnc2c(Cl)nc(N)nc21)OCC", "method": "visual reading", "result": "187 µM"}
{"smiles": "Cc1cc(C)n2cc(-c3ccccc3)cc2c1", "method": "MTT", "result": ">500 µM"}
{"smiles": "CCOP(=O)(O)CCCCCCCOCn1cnc2c(=O)[nH]c(N)nc21", "method": "visual reading", "result": ">2580 µM"}
{"smiles": "CCO/N=C/c1ccc(OCCC2CCN(c3nc4ccccc4o3)CC2)cc1", "method": "neutral red", "result": ">0.1 µg/mL"}
{"smiles": "c1coc(-c2cc3ccccn3c2)c1", "method": "MTT", "result": ">500 µM"}
{"smiles": "CO/N=C/c1ccc(OCCC2CCN(c3ccc(C)nn3)CC2)cc1", "method": "neutral red", "result": ">0.1 µg/mL"}
{"smiles": "Clc1ccc2c(NCCNC(CCC3CCNCC3)c3ccccc3)ccnc2c1", "method": "fluorescence", "result": "0.008 µM"}
{"smiles": "CCO/N=C(\\C)c1ccc(OCCC2CCN(c3ccc(Cl)nn3)CC2)cc1", "method": "visual reading", "result": ">1 µg/mL"}
{"smiles": "CCOP(=O)(O)CCC(O)CCOCn1cnc2c(=O)[nH]c(N)nc21", "method": "visual reading", "result": ">2000 µM"}
{"smiles": "CCCO/N=C/c1ccc(OCCCc2cc(C)no2)cc1", "method": "visual reading", "result": ">1 µg/mL"}
{"smiles": "Clc1ccc(-c2cc3ccccn3c2)c(Cl)c1", "method": "MTT", "result": ">500 µM"}
{"smiles": "CCOP(=O)(O)CCCOCn1cnc2c(=O)[nH]c(N)nc21", "method": "visual reading", "result": ">3000 µM"}
{"smiles": "CCO/N=C/c1ccc(OCCC2CCN(c3cc(C)c(Cl)nn3)CC2)cc1", "method": "neutral red", "result": ">0.5 µg/mL"}
{"smiles": "CC(=O)c1c(-c2ccc(Cl)c(Cl)c2)cc2ccccn12", "method": "MTT", "result": "162 µM"}

Repeating the first 2 entries:

smiles | method | result
Clc1ccc(-c2cc3ccccn3c2)cc1Cl | MTT | 391 µM
CCOP(=O)(CCC(COC)OCn1cnc2c(Cl)nc(N)nc21)OCC | visual reading | 187 µM